Assay results from patent US6974685B2, “High production method of prenyl alcohol using saccharomyces cells” (Toyota Jidosha Kabushiki Kaisha 1, priority 2000, dated 2005).

Experiments:
Type in all cases: cell-based
[1] = tested on: IFO 3032 Baccilus amyloliquefaciens; assay: Control culture of bacterial strain in KB medium (Example 11, Table 14); settings: treated with phosphatase
[2] = tested on: IFO 3762 Staphylococcus epidermidis; assay: as above; settings: treated with phosphatase
[3] = tested on: IFO 1892 Saccharomyces kluyeri; assay: Test-tube culture with ergosterol and squalene synthesis inhibitor SQAD, with or without glucose and soybean oil (Example 8)
[4] = tested on: IFO 0948 Komagataella pastoris; assay: as above
[5] = tested on: IFO 0215 Saccharomyces unisporus; assay: as above
[6] = tested on: IFO 0974 Kuraishia capsulata; assay: as above
[7] = tested on: K 4104 Saccharomyces cerevisiae; assay: Test-tube culture in YM or YM + 5% glucose + 1% soybean oil (Example 7)
[8] = tested on: IFO 0622 Candida glabrata; assay: Test-tube culture with ergosterol and squalene synthesis inhibitor SQAD, with or without glucose and soybean oil (Example 8)
[9] = tested on: IFO 0717 Yarrowia lopolytica; assay: as above
[10] = YM + 4 mg/L ergosterol, SQAD 0 mg/L, 3 days
[11] = YM + 4 mg/L ergosterol, SQAD 0 mg/L, 7 days
[12] = YM + 4 mg/L ergosterol, SQAD 1 mg/L, 3 days
[13] = YM + 4 mg/L ergosterol, SQAD 1 mg/L, 7 days
[14] = YM + 4 mg/L ergosterol, SQAD 20 mg/L, 3 days
[15] = YM + 4 mg/L ergosterol, SQAD 20 mg/L, 7 days
[16] = YM + 5% glucose + 1% soybean oil + 4 mg/L ergosterol, SQAD 0 mg/L, 3 days
[17] = YM + 5% glucose + 1% soybean oil + 4 mg/L ergosterol, SQAD 0 mg/L, 7 days
[18] = YM + 5% glucose + 1% soybean oil + 4 mg/L ergosterol, SQAD 1 mg/L, 3 days
[19] = YM + 5% glucose + 1% soybean oil + 4 mg/L ergosterol, SQAD 1 mg/L, 7 days
[20] = YM + 5% glucose + 1% soybean oil + 4 mg/L ergosterol, SQAD 20 mg/L, 3 days
[21] = YM + 5% glucose + 1% soybean oil + 4 mg/L ergosterol, SQAD 20 mg/L, 7 days
[22] = YM + 5% glucose + 1% soybean oil, 3 days
[23] = YM + 5% glucose + 1% soybean oil, 6 days

In the case of `CC(C)=CCC/C(C)=C/CC/C(C)=C/CC/C(C)=C/CO` [GGOH, geranylgeraniol], the Cell fraction [1] is reported as 0.0 μg/L of culture solution, the Supernatant fraction [1] is reported as 0.0 μg/L of culture solution and the Cell fraction [2] is reported as 0.0 μg/L of culture solution. For the same compound, the Supernatant fraction [2] was 0.0 μg/L of culture solution, the Cell fraction [3, 10] was 8.9 μg/L of culture solution and the Supernatant fraction [3, 10] was 0.0 μg/L of culture solution. The Cell fraction [3, 11] was 0.0 μg/L of culture solution, the Supernatant fraction [3, 11] was 0.0 μg/L of culture solution and the Cell fraction [3, 12] was 16.7 μg/L of culture solution. For the same compound, the Supernatant fraction [3, 12] was 0.0 μg/L of culture solution, the Cell fraction [3, 13] was 0.0 μg/L of culture solution and the Supernatant fraction [3, 13] was 0.0 μg/L of culture solution. The Cell fraction [3, 14] was 38.5 μg/L of culture solution, the Supernatant fraction [3, 14] was 0.0. μg/L of culture solution and the Cell fraction [3, 15] was 0.0 μg/L of culture solution. The Supernatant fraction [3, 15] was 0.0 μg/L of culture solution, the Cell fraction [3, 16] was 0.0 μg/L of culture solution and the Supernatant fraction [3, 16] was 46.1 μg/L of culture solution. For the same compound, the Cell fraction [3, 17] was 0.0 μg/L of culture solution, the Supernatant fraction [3, 17] was 71.4 μg/L of culture solution and the Cell fraction [3, 18] was 0.0 μg/L of culture solution. The Supernatant fraction [3, 18] was 23.0 μg/L of culture solution, the Cell fraction [3, 19] was 0.0 μg/L of culture solution and the Supernatant fraction [3, 19] was 101.7 μg/L of culture solution. The Cell fraction [3, 20] was 0.0 μg/L of culture solution, the Supernatant fraction [3, 20] was 30.7 μg/L of culture solution and the Cell fraction [3, 21] was 27.8 μg/L of culture solution. The Supernatant fraction [3, 21] was 126.4 μg/L of culture solution, the Cell fraction [4, 10] was 0.0 μg/L of culture solution and the Supernatant fraction [4, 10] was 0.0 μg/L of culture solution. The Cell fraction [4, 11] was 0.0 μg/L of culture solution, the Supernatant fraction [4, 11] was 0.0 μg/L of culture solution and the Cell fraction [4, 12] was 0.0 μg/L of culture solution. The Supernatant fraction [4, 12] was 0.0 μg/L of culture solution, the Cell fraction [4, 13] was 0.0 μg/L of culture solution and the Supernatant fraction [4, 13] was 0.0 μg/L of culture solution. The Cell fraction [4, 14] was 1.8 μg/L of culture solution, the Supernatant fraction [4, 14] was 2.3 μg/L of culture solution and the Cell fraction [4, 15] was 0.0 μg/L of culture solution. For the same compound, the Supernatant fraction [4, 15] was 0.0 μg/L of culture solution, the Cell fraction [4, 16] was 42.3 μg/L of culture solution and the Supernatant fraction [4, 16] was 78.9 μg/L of culture solution. The Cell fraction [4, 17] was 11.0 μg/L of culture solution, the Supernatant fraction [4, 17] was 83.5 μg/L of culture solution and the Cell fraction [4, 18] was 28.4 μg/L of culture solution. The Supernatant fraction [4, 18] was 71.5 μg/L of culture solution, the Cell fraction [4, 19] was 28.2 μg/L of culture solution and the Supernatant fraction [4, 19] was 235.7 μg/L of culture solution. The Cell fraction [4, 20] was 80.1 μg/L of culture solution, the Supernatant fraction [4, 20] was 132.5 μg/L of culture solution and the Cell fraction [4, 21] was 84.5 μg/L of culture solution. For the same compound, the Supernatant fraction [4, 21] was 360.4 μg/L of culture solution, the Cell fraction [5, 10] was 0.0 μg/L of culture solution and the Supernatant fraction [5, 10] was 0.0 μg/L of culture solution. The Cell fraction [5, 11] was 0.0 μg/L of culture solution, the Supernatant fraction [5, 11] was 0.0 μg/L of culture solution and the Cell fraction [5, 12] was 0.0 μg/L of culture solution. For the same compound, the Supernatant fraction [5, 12] was 0.0 μg/L of culture solution, the Cell fraction [5, 13] was 0.0 μg/L of culture solution and the Supernatant fraction [5, 13] was 0.0 μg/L of culture solution. The Cell fraction [5, 14] was 0.0 μg/L of culture solution, the Supernatant fraction [5, 14] was 0.0 μg/L of culture solution and the Cell fraction [5, 15] was 0.0 μg/L of culture solution. For the same compound, the Supernatant fraction [5, 15] was 0.0 μg/L of culture solution, the Cell fraction [5, 16] was 0.0 μg/L of culture solution and the Supernatant fraction [5, 16] was 0.0 μg/L of culture solution. For the same compound, the Cell fraction [5, 17] was 0.0 μg/L of culture solution, the Supernatant fraction [5, 17] was 0.0 μg/L of culture solution and the Cell fraction [5, 18] was 0.0 μg/L of culture solution. The Supernatant fraction [5, 18] was 0.0 μg/L of culture solution, the Cell fraction [5, 19] was 0.0 μg/L of culture solution and the Supernatant fraction [5, 19] was 0.0 μg/L of culture solution. For the same compound, the Cell fraction [5, 20] was 0.0 μg/L of culture solution, the Supernatant fraction [5, 20] was 0.0 μg/L of culture solution and the Cell fraction [5, 21] was 0.0 μg/L of culture solution. The Supernatant fraction [5, 21] was 21.6 μg/L of culture solution, the Cell fraction [6, 10] was 0.0 μg/L of culture solution and the Supernatant fraction [6, 10] was 0.0 μg/L of culture solution. For the same compound, the Cell fraction [6, 11] was 0.0 μg/L of culture solution, the Supernatant fraction [6, 11] was 0.0 μg/L of culture solution and the Cell fraction [6, 12] was 0.0 μg/L of culture solution. For the same compound, the Supernatant fraction [6, 12] was 0.0 μg/L of culture solution, the Cell fraction [6, 13] was 0.0 μg/L of culture solution and the Supernatant fraction [6, 13] was 0.0 μg/L of culture solution. The Cell fraction [6, 14] was 0.0 μg/L of culture solution, the Supernatant fraction [6, 14] was 0.0 μg/L of culture solution and the Cell fraction [6, 15] was 0.0 μg/L of culture solution. For the same compound, the Supernatant fraction [6, 15] was 0.0 μg/L of culture solution, the Cell fraction [6, 16] was 0.0 μg/L of culture solution and the Supernatant fraction [6, 16] was 11.1 μg/L of culture solution. The Cell fraction [6, 17] was 8.5 μg/L of culture solution, the Supernatant fraction [6, 17] was 236.3 μg/L of culture solution and the Cell fraction [6, 18] was 7.5 μg/L of culture solution. The Supernatant fraction [6, 18] was 46.1 μg/L of culture solution, the Cell fraction [6, 19] was 21.2 μg/L of culture solution and the Supernatant fraction [6, 19] was 275.7 μg/L of culture solution. The Cell fraction [6, 20] was 34.8 μg/L of culture solution, the Supernatant fraction [6, 20] was 262.0 μg/L of culture solution and the Cell fraction [6, 21] was 59.7 μg/L of culture solution. The Supernatant fraction [6, 21] was 680.4 μg/L of culture solution, the Cell fraction [7, 22] was 161.6 μg/L of culture solution and the Supernatant fraction [7, 22] was 127.7 μg/L of culture solution. For the same compound, the Cell fraction [7, 23] was 132.2 μg/L of culture solution, the Supernatant fraction [7, 23] was 186.9 μg/L of culture solution and the Cell fraction ([7]; YM medium (Difco)) was 31.7 μg/L of culture solution. For the same compound, the Supernatant fraction ([7]; YM medium (Difco)) was 0.0 μg/L of culture solution, the Cell fraction [8, 10] was 30.4 μg/L of culture solution and the Supernatant fraction [8, 10] was 0.0 μg/L of culture solution. The Cell fraction [8, 11] was 0.0 μg/L of culture solution, the Supernatant fraction [8, 11] was 0.0 μg/L of culture solution and the Cell fraction [8, 12] was 24.3 μg/L of culture solution. The Supernatant fraction [8, 12] was 0.0 μg/L of culture solution, the Cell fraction [8, 13] was 0.0 μg/L of culture solution and the Supernatant fraction [8, 13] was 0.0 μg/L of culture solution. For the same compound, the Cell fraction [8, 14] was 57.0 μg/L of culture solution, the Supernatant fraction [8, 14] was 0.0 μg/L of culture solution and the Cell fraction [8, 15] was 40.5 μg/L of culture solution. For the same compound, the Supernatant fraction [8, 15] was 0.0 μg/L of culture solution, the Cell fraction [8, 16] was 33.6 μg/L of culture solution and the Supernatant fraction [8, 16] was 112.3 μg/L of culture solution. For the same compound, the Cell fraction [8, 17] was 59.2 μg/L of culture solution, the Supernatant fraction [8, 17] was 408.5 μg/L of culture solution and the Cell fraction [8, 18] was 0.0 μg/L of culture solution. For the same compound, the Supernatant fraction [8, 18] was 119.7 μg/L of culture solution, the Cell fraction [8, 19] was 58.5 μg/L of culture solution and the Supernatant fraction [8, 19] was 231.5 μg/L of culture solution. For the same compound, the Cell fraction [8, 20] was 9.3 μg/L of culture solution, the Supernatant fraction [8, 20] was 327.2 μg/L of culture solution and the Cell fraction [8, 21] was 170.5 μg/L of culture solution. The Supernatant fraction [8, 21] was 862.7 μg/L of culture solution, the Cell fraction [9, 10] was 0.0 μg/L of culture solution and the Supernatant fraction [9, 10] was 0.0 μg/L of culture solution. The Cell fraction [9, 11] was 0.0 μg/L of culture solution, the Supernatant fraction [9, 11] was 0.0 μg/L of culture solution and the Cell fraction [9, 12] was 0.0 μg/L of culture solution. For the same compound, the Supernatant fraction [9, 12] was 0.0 μg/L of culture solution, the Cell fraction [9, 13] was 0.0 μg/L of culture solution and the Supernatant fraction [9, 13] was 0.0 μg/L of culture solution. For the same compound, the Cell fraction [9, 14] was 63.5 μg/L of culture solution, the Supernatant fraction [9, 14] was 66.5 μg/L of culture solution and the Cell fraction [9, 15] was 0.0 μg/L of culture solution. For the same compound, the Supernatant fraction [9, 15] was 0.0 μg/L of culture solution, the Cell fraction [9, 16] was 0.0 μg/L of culture solution and the Supernatant fraction [9, 16] was 0.0 μg/L of culture solution. For the same compound, the Cell fraction [9, 17] was 38.4 μg/L of culture solution, the Supernatant fraction [9, 17] was 608.0 μg/L of culture solution and the Cell fraction [9, 18] was 0.0 μg/L of culture solution. For the same compound, the Supernatant fraction [9, 18] was 19.1 μg/L of culture solution, the Cell fraction [9, 19] was 0.0 μg/L of culture solution and the Supernatant fraction [9, 19] was 546.8 μg/L of culture solution. The Cell fraction [9, 20] was 0.0 μg/L of culture solution, the Supernatant fraction [9, 20] was 17.8 μg/L of culture solution and the Cell fraction [9, 21] was 41.8 μg/L of culture solution. For the same compound, the Supernatant fraction [9, 21] was 76.2 μg/L of culture solution.
